{"source": "PubChem BioAssay AID504761 (Drosophila RNAi Screening Center, 2011)", "aim": "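Fly genes whose silencing reduces dengue virus type 2 infection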 (primary screen)", "cells": "D.Mel-2 cells from Drosophila", "knock-down reagent": "long dsRNA against Drosophila genes", "treatment": "infection with dengue virus type 2; dose and infection time not stated", "read-out": "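Cells stained for dengue envelope protein and imaged; percent of infected cells per well on duplicate plates, ranked by infection, with stained nuclei counted for cell number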", "direction": "infection score: higher = more virus-infected cells; cell count: higher = more cells in the well", "rule for the call": "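Very low infection ranking in both replicate wells (chance probability at most 0.065), then a retest showing infection dropped 1.5-fold or more at p below 0.05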", "meaning of the calls": "active = confirmed: knock-down lowers infection; inactive = not picked or not confirmed", "note": "The screen tested about 22,000 reagents; this is a random part of those with a known target gene and a result. In the full data, 116 (0.52%) got an active call. 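Calls depend on retest data that are not deposited; infection was ranked per plate without normalising between plates; the unit of the infection score is not given.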 The raw values are shown without normalisation. Entries without a mark were called inactive. The numbers tell different reagents against one gene apart. Not all columns of the deposit are shown. No sequences are given here. Not stated in the record: the amount of reagent, the time to read-out."}
{"gene knocked down": "Osi14 (Osiris 14)", "reagent": 1, "infection score, replicate 1": 3.96, "cell count, replicate 1": 6773}
{"gene knocked down": "Osi14 (Osiris 14)", "reagent": 2, "infection score, replicate 1": 1.93, "cell count, replicate 1": 6123}
{"gene knocked down": "slx1 (nuclease slx1)", "reagent": 1, "infection score, replicate 1": 1.55, "cell count, replicate 1": 6658}
{"gene knocked down": "CG32281", "reagent": 1, "infection score, replicate 1": 11.6, "cell count, replicate 1": 6203}
{"gene knocked down": "Eaf (ELL-associated factor)", "reagent": 1, "infection score, replicate 1": 0.08, "cell count, replicate 1": 5289}
{"gene knocked down": "Eaf (ELL-associated factor)", "reagent": 2, "infection score, replicate 1": 8.73, "cell count, replicate 1": 6870}
{"gene knocked down": "Eaf (ELL-associated factor)", "reagent": 3, "infection score, replicate 1": 13.6, "cell count, replicate 1": 6569}
{"gene knocked down": "Eaf (ELL-associated factor)", "reagent": 4, "infection score, replicate 1": 34.7, "cell count, replicate 1": 6328}
{"gene knocked down": "ACXE (Adenylyl cyclase X E)", "reagent": 1, "infection score, replicate 1": 19.5, "cell count, replicate 1": 5227}
{"gene knocked down": "eIF3i (eukaryotic translation initiation factor 3 subunit i)", "reagent": 1, "infection score, replicate 1": 5.53, "cell count, replicate 1": 2929}
{"gene knocked down": "lds (lodestar)", "reagent": 1, "infection score, replicate 1": 4.52, "cell count, replicate 1": 6134}
{"gene knocked down": "Obp58d (Odorant-binding protein 58d)", "reagent": 1, "infection score, replicate 1": 8.66, "cell count, replicate 1": 6607}
{"gene knocked down": "Vps16B (Vacuolar protein sorting 16B)", "reagent": 1, "cell count, replicate 1": 325}
{"gene knocked down": "CG3097", "reagent": 1, "infection score, replicate 1": 4.1, "cell count, replicate 1": 6345}

2 entries from above, reduced to “cell count, replicate 1”.
Vps16B (Vacuolar protein sorting 16B) = 325
CG3097 = 6345
